# Results from patent US4954637A, “Certain maleimide-N-alkylenecarboxylate-ortho-nitrobenzenesulfonic acid esters and derivatives useful for coupling biological materials” (Cetus Corporation, priority 1987, dated 1990).
# Test system: streptavidin
# Design: species or system Streptomyces avidinii
# Conditions: 20 minutes
# Protocol: A total of 0.26 mg (4.3×10^-3 μmoles) of streptavidin purified from Streptomyces avidinii by the method of Hoffman et al., PNAS. 77, 4666-4668 (1980) was dissolved in 1.0 ml of phosphate buffered saline at pH 7.4 to yield a total amine concentration of 6.93×10^-5 M (16NH2 /streptavidin). […] Good separation was achieved between the protein and the excess HNSA and unreacted HNSA ester. […] In this case 79% of the amino groups on streptavidin (12.9 out of 16.0) reacted.
structure (smiles),measurement,value
"O=C(CCCCCN1C(=O)C=CC1=O)Oc1ccc(S(=O)(=O)O)cc1[N+](=O)[O-] [mal-sac-HNSA, N-maleimido-6-aminocaproylHNSA]",amino groups on streptavidin reacted (out of 16.0),12.9
same,percent of the amino groups on streptavidin reacted,79%
